From paper PMC3335879, “Selective Inhibitors of Protozoan Protein N-myristoyltransferases as Starting Points for Tropical Disease Medicinal Chemistry Programs” (PLoS Neglected Tropical Diseases, 2012)

System: L. donovani NMT
Assay type: biochemical
Conditions: selectivity for Ldon NMT over Pfal NMT derived from IC50 values
Procedure: Recombinant P. falciparum (Swiss-Prot Q81LW6) and L. donovani NMTs (EMBL accession number FN555136) were produced at the University of York, using established protocols. An assay format based on scintillation proximity technology to monitor enzyme activity was used as previously described, [30].
The Pfizer Global Diverse Representative Set consisting of 150,000 compounds was screened at 20 µM final assay concentration. Assay plates were prepared by dispensing 0.1 µL of compound dissolved in DMSO using the Vario system (Cybio) into white 384-well plates (Greiner Bio-One).
The reaction was initiated by adding 10 µL of the substrate mixture to each well containing the pre-incubated enzyme/compound mixture, and allowed to proceed at RT for 80 min. The reaction was quenched by the addition 20 µl of stop solution to each well. Stop solution consisted of 0.75 M MgCl2 (Sigma), 0.1 M phosphoric acid (Sigma) and 1 mg/ml of streptavidin-coated polystyrene SPA beads (Perkin-Elmer). Plates were sealed using topseals (Perkin-Elmer) and left overnight to allow the bead solution to settle. Radioactive counts were measured with an integration time of 300 sec per plate using the Leadseeker Generation 4 plate reader (GE Healthcare). […] The data were analysed using Pfizer SIGHTS software and visualised using Spotfire software (TIBCO).

Row | Compound | Ldon/Pfal Sel
1 | c1cncc(CCNCc2cccc(-c3cccc(CN4CCc5ncsc5C4)c3)c2)c1 [PF-00075634] | >505
2 | NC(CC(=O)N1CC(CO)C(c2ccc(Cl)cc2)C1)Cc1ccc(Cl)cc1 (centres unmarked) [PF-03402623] | 770
